Source: ChEMBL document CHEMBL5346973 (J Med Chem, 2023)

Sequences of proteins named here, by UniProt entry; tags and fusion partners are left off. Residues count along the entry.
UniProt P04756, 21-457 limits assumed: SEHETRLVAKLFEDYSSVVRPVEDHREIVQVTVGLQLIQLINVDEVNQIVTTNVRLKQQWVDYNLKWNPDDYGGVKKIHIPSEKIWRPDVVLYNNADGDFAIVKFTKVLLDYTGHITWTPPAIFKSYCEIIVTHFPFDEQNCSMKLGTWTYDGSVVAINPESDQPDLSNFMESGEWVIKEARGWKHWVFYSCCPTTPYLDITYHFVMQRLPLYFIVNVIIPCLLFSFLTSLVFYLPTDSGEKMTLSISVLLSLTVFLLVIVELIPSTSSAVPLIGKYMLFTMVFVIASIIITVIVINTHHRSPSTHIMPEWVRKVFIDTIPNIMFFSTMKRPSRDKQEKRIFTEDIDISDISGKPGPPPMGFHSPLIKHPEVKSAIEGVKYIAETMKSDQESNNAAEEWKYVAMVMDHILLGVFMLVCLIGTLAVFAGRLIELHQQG
UniProt P09690, 24-501 limits assumed: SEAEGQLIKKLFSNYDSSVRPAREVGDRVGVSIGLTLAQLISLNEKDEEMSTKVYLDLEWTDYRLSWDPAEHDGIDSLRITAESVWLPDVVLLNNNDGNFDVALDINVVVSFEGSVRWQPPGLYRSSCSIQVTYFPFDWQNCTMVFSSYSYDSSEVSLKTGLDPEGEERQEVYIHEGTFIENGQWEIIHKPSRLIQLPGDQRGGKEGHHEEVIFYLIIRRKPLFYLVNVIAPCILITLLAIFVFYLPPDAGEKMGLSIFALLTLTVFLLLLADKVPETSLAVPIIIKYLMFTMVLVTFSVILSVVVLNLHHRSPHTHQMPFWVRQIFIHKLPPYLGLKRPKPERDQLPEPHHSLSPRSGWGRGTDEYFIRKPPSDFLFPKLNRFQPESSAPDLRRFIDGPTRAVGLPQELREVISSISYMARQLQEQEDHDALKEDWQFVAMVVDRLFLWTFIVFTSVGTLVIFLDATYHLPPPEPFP
UniProt P02716, 25-520 limits assumed: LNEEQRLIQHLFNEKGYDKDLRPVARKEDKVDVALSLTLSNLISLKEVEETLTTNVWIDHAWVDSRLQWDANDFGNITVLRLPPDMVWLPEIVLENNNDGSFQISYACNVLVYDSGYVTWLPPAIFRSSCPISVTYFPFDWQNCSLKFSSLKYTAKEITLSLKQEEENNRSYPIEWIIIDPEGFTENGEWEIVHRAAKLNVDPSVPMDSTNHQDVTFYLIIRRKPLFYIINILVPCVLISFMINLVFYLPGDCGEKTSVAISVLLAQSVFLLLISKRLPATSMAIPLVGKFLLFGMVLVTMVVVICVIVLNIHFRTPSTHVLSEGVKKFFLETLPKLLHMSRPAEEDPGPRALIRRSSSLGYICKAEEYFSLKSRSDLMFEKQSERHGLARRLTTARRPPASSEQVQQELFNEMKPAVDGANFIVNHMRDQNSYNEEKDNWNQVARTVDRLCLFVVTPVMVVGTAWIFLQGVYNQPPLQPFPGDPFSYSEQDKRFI
UniProt P20782, 21-493 limits assumed: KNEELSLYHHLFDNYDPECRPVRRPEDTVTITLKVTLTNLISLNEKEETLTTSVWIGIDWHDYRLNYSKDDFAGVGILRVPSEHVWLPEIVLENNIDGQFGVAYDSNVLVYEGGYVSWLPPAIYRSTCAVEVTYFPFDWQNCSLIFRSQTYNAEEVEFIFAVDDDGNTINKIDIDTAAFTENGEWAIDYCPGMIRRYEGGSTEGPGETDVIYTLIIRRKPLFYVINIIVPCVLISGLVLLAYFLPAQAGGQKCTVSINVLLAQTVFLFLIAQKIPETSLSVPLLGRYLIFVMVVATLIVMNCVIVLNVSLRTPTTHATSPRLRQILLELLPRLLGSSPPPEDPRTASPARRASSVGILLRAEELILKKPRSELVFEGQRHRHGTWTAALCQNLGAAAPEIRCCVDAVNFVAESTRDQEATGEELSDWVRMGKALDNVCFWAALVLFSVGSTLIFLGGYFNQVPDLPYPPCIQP

Target: Nicotinic acetylcholine receptor alpha1/beta1/epsilon/delta (Mus musculus, UniProt P04756+P09690+P02716+P20782)
Test: Antagonist activity at mouse alpha1beta1deltaepsilon nACh receptor expressed in Xenopus oocyte assessed as inhibition of acetylcholine-induced response at -70 mV holding potential by voltage-clamp based electrophysiological assay

Q: How did the IC50 turn out when `CC[C@H](C)[C@@H]1NC(=O)[C@H](CCCNC(=N)N)NC(=O)[C@H](CCCNC(=N)N)NC(=O)[C@@H]2CSSC[C@H](NC(=O)[C@H](Cc3ccc(O)cc3)NC(=O)[C@H](CCCNC(=N)N)NC(=O)CNC(=O)[C@H](CO)NC(=O)[C@H](CO)NC(=O)[C@H](CCCNC(=N)N)NC(=O)[C@@H](NC(=O)[C@@H](N)[C@@H](C)O)CSSC[C@@H](C(=O)N[C@H](C(=O)O)C(C)C)NC(=O)[C@H](C)NC(=O)[C@H](CC(=O)O)NC(=O)[C@H]([C@@H](C)O)NC1=O)C(=O)N[C@@H](CCCNC(=N)N)C(=O)N[C@@H](CO)C(=O)N[C@@H](C)C(=O)N[C@@H](Cc1ccc(O)cc1)C(=O)N[C@@H](CC(=O)O)C(=O)N[C@@H](CCCNC(=N)N)C(=O)N[C@@H](CCCNC(=N)N)C(=O)N[C@@H](CCCNC(=N)N)C(=O)N[C@@H](CCCNC(=N)N)C(=O)N[C@@H](Cc1ccc(O)cc1)C(=O)N2` was run?
A: 1040 nM

Q: Which IC50 does the source give for `CC[C@H](C)[C@@H]1NC(=O)[C@H](CCCNC(=N)N)NC(=O)[C@H](CCCNC(=N)N)NC(=O)[C@@H]2CSSC[C@H](NC(=O)[C@H](Cc3ccc(O)cc3)NC(=O)[C@H](CCCNC(=N)N)NC(=O)CNC(=O)[C@H](CO)NC(=O)[C@H](CO)NC(=O)[C@H](CCCNC(=N)N)NC(=O)[C@@H](NC(=O)[C@@H](N)[C@@H](C)O)CSSC[C@@H](C(=O)N[C@H](C(=O)O)C(C)C)NC(=O)[C@H](C)NC(=O)[C@H](CC(=O)O)NC(=O)[C@H]([C@@H](C)O)NC1=O)C(=O)N[C@@H](CCCNC(=N)N)C(=O)N[C@@H](CO)C(=O)N1CCC[C@H]1C(=O)N[C@@H](Cc1ccc(O)cc1)C(=O)N[C@@H](C)C(=O)N[C@@H](CCCNC(=N)N)C(=O)N[C@@H](CCCNC(=N)N)C(=O)N[C@@H](CCCNC(=N)N)C(=O)N[C@@H](CCCNC(=N)N)C(=O)N[C@@H](Cc1ccc(O)cc1)C(=O)N2` here?
A: 880 nM

Q: Which IC50 does the source give for `CC[C@H](C)[C@@H]1NC(=O)[C@H](CCCNC(=N)N)NC(=O)[C@H](CCCNC(=N)N)NC(=O)[C@@H]2CSSC[C@H](NC(=O)[C@H](Cc3ccc(O)cc3)NC(=O)[C@H](CCCNC(=N)N)NC(=O)CNC(=O)[C@H](CO)NC(=O)[C@H](CO)NC(=O)[C@H](CCCNC(=N)N)NC(=O)[C@@H](NC(=O)[C@@H](N)[C@@H](C)O)CSSC[C@@H](C(=O)N[C@H](C(=O)O)C(C)C)NC(=O)[C@H](C)NC(=O)[C@H](CC(=O)O)NC(=O)[C@H]([C@@H](C)O)NC1=O)C(=O)N[C@@H](CCCNC(=N)N)C(=O)N[C@@H](C)C(=O)N1CCC[C@H]1C(=O)N[C@@H](Cc1ccc(O)cc1)C(=O)N[C@@H](CC(=O)O)C(=O)N[C@@H](CCCNC(=N)N)C(=O)N[C@@H](CCCNC(=N)N)C(=O)N[C@@H](CCCNC(=N)N)C(=O)N[C@@H](CCCNC(=N)N)C(=O)N[C@@H](Cc1ccc(O)cc1)C(=O)N2` here?
A: 1290 nM

Q: How did the IC50 turn out when `CC[C@H](C)[C@@H]1NC(=O)[C@H](CCCNC(=N)N)NC(=O)[C@H](C)NC(=O)[C@@H]2CSSC[C@H](NC(=O)[C@H](Cc3ccc(O)cc3)NC(=O)[C@H](CCCNC(=N)N)NC(=O)CNC(=O)[C@H](CO)NC(=O)[C@H](CO)NC(=O)[C@H](CCCNC(=N)N)NC(=O)[C@@H](NC(=O)[C@@H](N)[C@@H](C)O)CSSC[C@@H](C(=O)N[C@H](C(=O)O)C(C)C)NC(=O)[C@H](C)NC(=O)[C@H](CC(=O)O)NC(=O)[C@H]([C@@H](C)O)NC1=O)C(=O)N[C@@H](CCCNC(=N)N)C(=O)N[C@@H](CO)C(=O)N1CCC[C@H]1C(=O)N[C@@H](Cc1ccc(O)cc1)C(=O)N[C@@H](CC(=O)O)C(=O)N[C@@H](CCCNC(=N)N)C(=O)N[C@@H](CCCNC(=N)N)C(=O)N[C@@H](CCCNC(=N)N)C(=O)N[C@@H](CCCNC(=N)N)C(=O)N[C@@H](Cc1ccc(O)cc1)C(=O)N2` was run?
A: 860 nM

Q: How did the IC50 turn out when `CC[C@H](C)[C@@H]1NC(=O)[C@H](CCCNC(=N)N)NC(=O)[C@H](CCCNC(=N)N)NC(=O)[C@@H](NC(=O)[C@H](Cc2ccc(O)cc2)NC(=O)[C@H](CCCNC(=N)N)NC(=O)[C@H](CCCNC(=N)N)NC(=O)[C@H](CCCNC(=N)N)NC(=O)[C@H](CCCNC(=N)N)NC(=O)[C@H](CC(=O)O)NC(=O)[C@H](Cc2ccc(O)cc2)NC(=O)[C@@H]2CCCN2C(=O)[C@H](CO)NC(=O)[C@H](CCCNC(=N)N)NC(=O)[C@@H]2CSSC[C@H](NC(=O)[C@@H](N)[C@@H](C)O)C(=O)N[C@@H](CCCNC(=N)N)C(=O)N[C@@H](CO)C(=O)N[C@@H](CO)C(=O)NCC(=O)N[C@@H](CCCNC(=N)N)C(=O)N[C@@H](Cc3ccc(O)cc3)C(=O)N2)CSSC[C@@H](C(=O)N[C@H](C(=O)O)C(C)C)NC(=O)[C@H](C)NC(=O)[C@H](CC(=O)O)NC(=O)[C@H](C)NC1=O` was run?
A: 3900 nM

Q: For `CC[C@H](C)[C@@H]1NC(=O)[C@H](CCCNC(=N)N)NC(=O)[C@H](CCCNC(=N)N)NC(=O)[C@@H]2CSSC[C@H](NC(=O)[C@H](Cc3ccc(O)cc3)NC(=O)[C@H](CCCNC(=N)N)NC(=O)CNC(=O)[C@H](CO)NC(=O)[C@H](CO)NC(=O)[C@H](CCCNC(=N)N)NC(=O)[C@@H](NC(=O)[C@@H](N)[C@@H](C)O)CSSC[C@@H](C(=O)N[C@H](C(=O)O)C(C)C)NC(=O)[C@H](C)NC(=O)[C@H](CC(=O)O)NC(=O)[C@H]([C@@H](C)O)NC1=O)C(=O)N[C@@H](CCCNC(=N)N)C(=O)N[C@@H](CO)C(=O)N1CCC[C@H]1C(=O)N[C@@H](Cc1ccc(O)cc1)C(=O)N[C@@H](CC(=O)O)C(=O)N[C@@H](CCCNC(=N)N)C(=O)N[C@@H](CCCNC(=N)N)C(=O)N[C@@H](CCCNC(=N)N)C(=O)N[C@@H](CCCNC(=N)N)C(=O)N[C@@H](C)C(=O)N2`, which IC50 is on record?
A: 1240 nM

Q: `CC[C@H](C)[C@@H]1NC(=O)[C@H](CCCNC(=N)N)NC(=O)[C@H](CCCNC(=N)N)NC(=O)[C@@H]2CSSC[C@H](NC(=O)[C@H](Cc3ccc(O)cc3)NC(=O)[C@H](CCCNC(=N)N)NC(=O)CNC(=O)[C@H](CO)NC(=O)[C@H](CO)NC(=O)[C@H](CCCNC(=N)N)NC(=O)[C@@H](NC(=O)[C@@H](N)[C@@H](C)O)CSSC[C@@H](C(=O)N[C@H](C(=O)O)C(C)C)NC(=O)[C@H](C)NC(=O)[C@H](CC(=O)O)NC(=O)[C@H]([C@@H](C)O)NC1=O)C(=O)N[C@@H](CCCNC(=N)N)C(=O)N[C@@H](CO)C(=O)N1CCC[C@H]1C(=O)N[C@@H](Cc1ccc(O)cc1)C(=O)N[C@@H](CC(=O)O)C(=O)N[C@@H](C)C(=O)N[C@@H](CCCNC(=N)N)C(=O)N[C@@H](CCCNC(=N)N)C(=O)N[C@@H](CCCNC(=N)N)C(=O)N[C@@H](Cc1ccc(O)cc1)C(=O)N2` was tested. Which IC50 did it give?
A: 640 nM

Q: `CC(C)[C@H](NC(=O)[C@@H]1CSSC[C@H](NC(=O)[C@@H](N)[C@@H](C)O)C(=O)N[C@@H](CCCNC(=N)N)C(=O)N[C@@H](CO)C(=O)N[C@@H](CO)C(=O)NCC(=O)N[C@@H](CCCNC(=N)N)C(=O)N[C@@H](Cc2ccc(O)cc2)C(=O)N[C@H]2CSSC[C@H](NC(=O)[C@H](Cc3ccc(O)cc3)NC(=O)[C@H](CCCNC(=N)N)NC(=O)[C@H](CCCNC(=N)N)NC(=O)[C@H](CCCNC(=N)N)NC(=O)[C@H](CCCNC(=N)N)NC(=O)[C@H](CC(=O)O)NC(=O)[C@H](Cc3ccc(O)cc3)NC(=O)[C@@H]3CCCN3C(=O)[C@H](CO)NC(=O)[C@H](CCCNC(=N)N)NC2=O)C(=O)N[C@@H](CCCNC(=N)N)C(=O)N[C@@H](CCCNC(=N)N)C(=O)N[C@@H](C)C(=O)N[C@@H]([C@@H](C)O)C(=O)N[C@@H](CC(=O)O)C(=O)N[C@@H](C)C(=O)N1)C(=O)O` was tested. Which IC50 did it give?
A: 930 nM

Q: Which IC50 does the source give for `CC[C@H](C)[C@@H]1NC(=O)[C@H](CCCNC(=N)N)NC(=O)[C@H](CCCNC(=N)N)NC(=O)[C@@H](NC(=O)[C@H](Cc2ccc(O)cc2)NC(=O)[C@H](CCCNC(=N)N)NC(=O)[C@H](C)NC(=O)[C@H](CCCNC(=N)N)NC(=O)[C@H](CCCNC(=N)N)NC(=O)[C@H](CC(=O)O)NC(=O)[C@H](Cc2ccc(O)cc2)NC(=O)[C@@H]2CCCN2C(=O)[C@H](CO)NC(=O)[C@H](CCCNC(=N)N)NC(=O)[C@@H]2CSSC[C@H](NC(=O)[C@@H](N)[C@@H](C)O)C(=O)N[C@@H](CCCNC(=N)N)C(=O)N[C@@H](CO)C(=O)N[C@@H](CO)C(=O)NCC(=O)N[C@@H](CCCNC(=N)N)C(=O)N[C@@H](Cc3ccc(O)cc3)C(=O)N2)CSSC[C@@H](C(=O)N[C@H](C(=O)O)C(C)C)NC(=O)[C@H](C)NC(=O)[C@H](CC(=O)O)NC(=O)[C@H]([C@@H](C)O)NC1=O` here?
A: 6290 nM

Q: Which IC50 does the source give for `CC[C@H](C)[C@@H]1NC(=O)[C@H](CCCNC(=N)N)NC(=O)[C@H](CCCNC(=N)N)NC(=O)[C@@H](NC(=O)[C@H](Cc2ccc(O)cc2)NC(=O)[C@H](CCCNC(=N)N)NC(=O)[C@H](CCCNC(=N)N)NC(=O)[C@H](CCCNC(=N)N)NC(=O)[C@H](C)NC(=O)[C@H](CC(=O)O)NC(=O)[C@H](Cc2ccc(O)cc2)NC(=O)[C@@H]2CCCN2C(=O)[C@H](CO)NC(=O)[C@H](CCCNC(=N)N)NC(=O)[C@@H]2CSSC[C@H](NC(=O)[C@H](N)[C@H](C)O)C(=O)N[C@@H](CCCNC(=N)N)C(=O)N[C@@H](CO)C(=O)N[C@@H](CO)C(=O)NCC(=O)N[C@@H](CCCNC(=N)N)C(=O)N[C@@H](Cc3ccc(O)cc3)C(=O)N2)CSSC[C@@H](C(=O)N[C@H](C(=O)O)C(C)C)NC(=O)[C@H](C)NC(=O)[C@H](CC(=O)O)NC(=O)[C@H]([C@@H](C)O)NC1=O` here?
A: 2740 nM

Q: `CC[C@H](C)[C@@H]1NC(=O)[C@H](CCCNC(=N)N)NC(=O)[C@H](CCCNC(=N)N)NC(=O)[C@@H]2CSSC[C@H](NC(=O)[C@H](Cc3ccc(O)cc3)NC(=O)[C@H](CCCNC(=N)N)NC(=O)CNC(=O)[C@H](CO)NC(=O)[C@H](C)NC(=O)[C@H](CCCNC(=N)N)NC(=O)[C@@H](NC(=O)[C@@H](N)[C@@H](C)O)CSSC[C@@H](C(=O)N[C@H](C(=O)O)C(C)C)NC(=O)[C@H](C)NC(=O)[C@H](CC(=O)O)NC(=O)[C@H]([C@@H](C)O)NC1=O)C(=O)N[C@@H](CCCNC(=N)N)C(=O)N[C@@H](CO)C(=O)N1CCC[C@H]1C(=O)N[C@@H](Cc1ccc(O)cc1)C(=O)N[C@@H](CC(=O)O)C(=O)N[C@@H](CCCNC(=N)N)C(=O)N[C@@H](CCCNC(=N)N)C(=O)N[C@@H](CCCNC(=N)N)C(=O)N[C@@H](CCCNC(=N)N)C(=O)N[C@@H](Cc1ccc(O)cc1)C(=O)N2` was tested. Which IC50 did it give?
A: 910 nM
